PubChem BioAssay AID504761 | Drosophila RNAi Screening Center, 2011
The deposit covers about 22,000 reagents; below is an unselected part of those that have a named target and a result. In the full data, 116 (0.52%) were called active. 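Calls depend on retest data that are not deposited; infection was ranked per plate without normalising between plates; the unit of the infection score is not given.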 A plus sign joins genes that one reagent is predicted to hit. Not all columns of the deposit are shown. Not stated in the record: the amount of reagent, the time to read-out.

- Aim: 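Genome-wide fly cell screen for genes dengue virus requires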 (primary screen)
- Cell system: D.Mel-2 cells from Drosophila
- Knock-down reagent: long dsRNA against Drosophila genes
- Treatment: infection with dengue virus type 2; dose and infection time not stated
- Read-out: 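Per well on two replicate plates, imaging gave the percent of cells positive for viral envelope protein, ranked by infection, and a nuclear count of cells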
- Reading the numbers: infection score: higher = more virus-infected cells
- Active means: 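Very low infection ranking in both replicate wells (chance probability at most 0.065), then a retest showing infection dropped 1.5-fold or more at p below 0.05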
- Meaning of the calls: active = confirmed: knock-down lowers infection; inactive = not picked or not confirmed

| gene knocked down | amplicon | infection score, replicate 1 | infection score, replicate 2 | activity call |
| --- | --- | --- | --- | --- |
| Gcat | DRSC09719 | 0.96 | 3.69 | inactive |
| Gcat | DRSC26093 | 12.6 | 12 | inactive |
| CG7564 | DRSC10880 | 3.17 | 3.87 | inactive |
| CG7564 | DRSC28225 | 1.63 | 4.57 | inactive |
| Lip3 | DRSC16727 | 3.61 | 1.45 | inactive |
| Lip3 | DRSC29354 | – | 21.6 | inactive |
| Jon99Ci | DRSC16860 | 4.73 | 5.71 | inactive |
| Jon99Ci | DRSC28041 | 28.6 | 3.72 | inactive |
| CG8565 | DRSC20112 | 3.31 | 9.4 | inactive |
| CG18420 | DRSC01954 | 2.57 | 7.6 | inactive |
| CG13998 | DRSC02330 | 10.9 | 7.74 | inactive |
| Cc2d2a | DRSC06750 | 33.5 | 18.5 | inactive |
| Hipk | DRSC07885 | 5.77 | 2.07 | inactive |
| Hipk | DRSC23155 | 1.81 | 6.72 | inactive |
| CG42818 + Ca-Ma2d | DRSC01963 | 16.5 | 8.2 | inactive |
| CG42818 + Ca-Ma2d | DRSC29730 | 19.2 | 8.52 | inactive |
| Gr9a | DRSC22506 | 1.44 | 7.96 | inactive |
| CG5790 | DRSC02896 | 4.76 | 24.9 | inactive |
| CG5790 | DRSC26201 | 16.3 | 8.28 | inactive |
| CG10031 | DRSC00286 | 3.68 | 2.12 | inactive |
| CG15890 | DRSC19737 | 13.2 | 18.5 | inactive |
| CG10232 | DRSC14218 | 4.89 | 10.8 | inactive |
| Drsl6 | DRSC08161 | 8.18 | 4.5 | inactive |

Looked up above.
Under “infection score, replicate 1”, CG7564 [DRSC28225] shows 1.63
Cc2d2a [DRSC06750], activity call → inactive
Lip3 [DRSC16727], activity call: inactive
Gr9a [DRSC22506], infection score, replicate 2 → 7.96
